{"source": "paper PMC12817916", "about": "“A small-molecule HSP90 inhibitor, NVP-HSP990, alleviates rotavirus infection” (Journal of Virology, 2025)", "test_system": "Caco-2 cells", "assay": "RNA-seq analysis of host cell transcriptome", "assay_type": "cell-based, Human", "conditions": "100 nM, 24 h", "key": {"[1]": {"conditions": "across all mock-, Wa-, and SA11-infected Caco-2 cells"}, "[2]": {"conditions": "in both Wa- and SA11-infected but not mock-infected Caco-2 cells"}}}
{"smiles": "COc1cccc(-c2cc(F)ccc2[C@H]2Cc3nc(N)nc(C)c3C(=O)N2)n1", "note": "[NVP-HSP990]", "values": [{"measurement": "number of genes downregulated", "setting": "[1]", "result": 287}, {"measurement": "number of genes upregulated", "setting": "[1]", "result": 112}, {"measurement": "number of genes downregulated", "setting": "[2]", "result": 96}, {"measurement": "number of genes upregulated", "setting": "[2]", "result": 75}]}
